A mixed list of measured activities; the numbers were collected in NIAID ChemDB.

All rows: enzyme or target tests; species: HIV-1; target: Protease; method: absorbance; read-out: IC50

Rows are shuffled and stem from different studies. ICn: concentration for n% inhibition.

smiles	value
O=[N+]([O-])c1ccc2c(c1)NCCC1(CCN(Cc3ccccc3)CC1)O2	>10 µM
CC(C)COC(=O)[C@H](Cc1ccccc1)NC(=O)C[C@@H](O)C(=O)N[C@@H](Cc1ccccc1)C(=O)OCC(C)C	10 µM
O=C(Oc1ccccc1)N1C2C3(CO)C(c4ccccc4)C4(CO)C1C1(CO)C(c5ccccc5)C2(CO)C3N(C(=O)Oc2ccccc2)C41	>25 µM
Cc1ccc2c(c1)/C(=N/O)CC1(CCN(Cc3ccccc3)CC1)O2	>10 µM
C=C(C)[C@@H]1CC[C@]2(C(=O)O)CC[C@]3(C)[C@H](CC[C@@H]4[C@@]5(C)CC[C@H](O)C(C)(C)[C@@H]5CC[C@]43C)[C@@H]12	2.5 µM
COC(=O)[C@@H](NC(=O)C[C@H]1CC[C@H](O)[C@H]1NC(=O)[C@H](C)NC(=O)OC(C)(C)C)C(C)C	>10 µM
C[C@H](CCC(=O)O)[C@H]1CC[C@H]2[C@@H]3[C@H](O)C[C@@H]4C[C@H](O)CC[C@]4(C)[C@H]3CC[C@]12C	40 µM
COC(=O)[C@H](CC(C)C)NC(=O)C[C@@H]1CC[C@H](NC(=O)[C@H](Cc2ccccc2)NC(=O)OC(C)(C)C)[C@H]1O	>10 µM
COc1ccc(C2C3(CO)C4N(C(=O)OC(C)(C)C)C5C2(CO)C2N(C(=O)OC(C)(C)C)C3C4(CO)C(c3ccc(OC)cc3)C52CO)cc1	>50 µM
C[C@H](CCC(=O)O)[C@H]1CC[C@H]2[C@@H]3CC[C@@H]4C[C@H](O)CC[C@]4(C)[C@H]3CC[C@]12C	10 µM
COC(=O)N1C2C3(CO)C(c4ccccc4)C4(CO)C1C1(CO)C(c5ccccc5)C2(CO)C3N(C(=O)OC)C41	>50 µM
CC[C@H](C)[C@H](NC(=O)OCc1ccccc1)C(=O)N[C@@H](Cc1ccccc1)C(=O)N[C@@H]1[C@H](CC(=O)N[C@H](C(=O)OC)C(C)C)CC[C@H]1O	3 µM
COc1ccc(C2C3(CO)C4N(C(=O)Cc5ccccc5)C5C2(CO)C2N(C(=O)Cc6ccccc6)C3C4(CO)C(c3ccc(OC)cc3)C52CO)cc1	>50 µM
O=C1O[C@H]2[C@@H]3OC(=O)c4cc(O)c(O)c(O)c4-c4c(cc(O)c(O)c4O)C(=O)OC[C@H]2O[C@@H](OC(=O)c2cc(O)c(O)c(O)c2)[C@@H]3OC(=O)c2cc(O)c(O)c3c2[C@@H]2C1=CC(=O)[C@](O)(O3)C2(O)O	6.28 µg/mL
COC(=O)[C@H](CC(C)C)NC(=O)C[C@H]1CC[C@H](O)[C@H]1NC(=O)[C@H](Cc1ccccc1)NC(=O)OC(C)(C)C	20 µM
O/N=C1\CC2(CCN(Cc3ccccc3)CC2)Oc2ccc(Cl)cc21	>10 µM
COC(=O)[C@@H](NC(=O)C[C@@H]1CC[C@@H](O)[C@@H]1NC(=O)[C@H](Cc1ccccc1)NC(=O)OC(C)(C)C)C(C)C	>10 µM
O/N=C1\CC2(CCN(Cc3ccccc3)CC2)Oc2ccccc21	>10 µM
CC(=O)N1C2C3(CO)C(c4ccccc4)C4(CO)C1C1(CO)C(c5ccccc5)C2(CO)C3N(C(C)=O)C41	>50 µM

For reference, 2 entries again:

smiles	value
CC(=O)N1C2C3(CO)C(c4ccccc4)C4(CO)C1C1(CO)C(c5ccccc5)C2(CO)C3N(C(C)=O)C41	>50 µM
C=C(C)[C@@H]1CC[C@]2(C(=O)O)CC[C@]3(C)[C@H](CC[C@@H]4[C@@]5(C)CC[C@H](O)C(C)(C)[C@@H]5CC[C@]43C)[C@@H]12	2.5 µM